Data set [1] has as its system human red blood cells (hRBCs). The data set is classed as cell-based. The protocol:
The peptide hemolytic activity was evaluated against human red blood cells (hRBCs) using the Haemolysis Assay Kit (HaemoScan, Groningen, The Netherlands), following the manufacturer’s instructions. 180 μL of hRBC solution were incubated 1 h at 37 °C with 20 μL of serially diluted L- and D-CecB Q53 peptides (final concentrations of 5, 10, 25, 50, 100, 200 µM) in triplicate. As hemolysis positive and negative controls, hRBC solutions incubated, respectively, with 0.2% Triton X and PBS, were followed in parallel. After centrifugation 10 min at 10,000× g, each supernatant was diluted 1:10 in the Assay Buffer and read at 450 nm with a microplate reader.
Hemolysis was evaluated according to the following equation: Hemolysis (%)=ODCecB−OD0/ODCtrl−OD0×100, where ODCecB is the OD in the presence of the peptide, ODCtrl is the OD of treated controls (0.2% Triton X), and OD0 is the background absorbance. The experiment was performed at least twice.

The test system of data set [2] is CCD-34Lu lung fibroblasts. In kind it is cell-based, human. Particulars: stated for both cell lines. As to the method:
The peptide cytotoxicity against human cells was evaluated using CCD-34Lu-lung fibroblasts and A549-lung adenocarcinoma cells. Moreover, 6 × 10^3 cells in DMEM medium added with 10% FBS were seeded in 96-well sterile plates. After 24 h, cells were incubated with increasing concentrations of peptide (final concentrations of 5, 10, 25, 50, and 100 µM, with an additional concentration of 200 µM in CCD-34Lu) for 24 h at 37 °C (three replicates per condition). Cell viability was measured by removing the exhausted medium, adding 100 µL of DMEM and 20 µL of the MTS solution (Promega). Plates were incubated at 37 °C for 20 min until the complete conversion of the compound. The absorbance was measured at 492 nm using a microplate reader. Cell viability was calculated using the formula: Viability (%)=ODCecB−OD0/ODCtrl−OD0×100, where ODCecB is the OD in the presence of the peptide, ODCtrl is the OD of cells without the peptide, and OD0 is the background absorbance (wells with only medium and MTS compound). The experiment was performed at least twice.

Non-standard residues stand in square brackets, D forms with d. Residues, ends and D or L forms follow the SMILES beside them.

On to `CC[C@@H](C)[C@@H](NC(=O)[C@@H](C)NC(=O)[C@@H](CCCCN)NC(=O)[C@@H](C)NC(=O)[C@@H](CO)NC(=O)CNC(=O)[C@@H](CC(C)C)NC(=O)[C@H](NC(=O)[C@@H](CCC(N)=O)NC(=O)[C@H](NC(=O)[C@@H](C)NC(=O)[C@H]1CCCN1C(=O)CNC(=O)[C@@H](C)NC(=O)[C@@H](CCCCN)NC(=O)[C@H](NC(=O)[C@H](NC(=O)CNC(=O)[C@@H](CC(=O)O)NC(=O)[C@@H](CCCNC(=N)N)NC(=O)[C@H](NC(=O)[C@@H](CC(N)=O)NC(=O)[C@@H](CCCNC(=N)N)NC(=O)CNC(=O)[C@@H](CCSC)NC(=O)[C@@H](CCCCN)NC(=O)[C@@H](CCC(=O)O)NC(=O)[C@H](NC(=O)[C@@H](CCCCN)NC(=O)[C@@H](CCCCN)NC(=O)[C@@H](Cc1ccccc1)NC(=O)[C@H](NC(=O)[C@@H](CCCCN)NC(=O)[C@@H](Cc1c[nH]c2ccccc12)NC(=O)[C@H](N)CCCNC(=N)N)[C@H](C)CC)[C@H](C)CC)[C@H](C)CC)[C@H](C)CC)C(C)C)[C@H](C)CC)C(C)C)C(N)=O` [D-Q53 CecB] (H-[dR][dW][dK][dI][dF][dK][dK][dI][dE][dK][dM]G[dR][dN][dI][dR][dD]G[dI][dV][dK][dA]G[dP][dA][dI][dQ][dV][dL]G[dS][dA][dK][dA][dI]-NH2; N-terminus and C-terminus assumed), for which, in data set [1], the “MHC relative to MBC” value is on record as ~ 23 fold. The “MHC relative to MIC in 2 mM CaCl2” value in data set [1] (most perturbing condition (2 mM CaCl2)) is on record as roughly 7 fold. For the same compound, in data set [2], the “IC50 relative to MBC” value is reported as ~ 15 fold and the “IC50 relative to MIC in 2 mM CaCl2” value was roughly 4 fold.

For the origin of these results see article PMC10419416, “Fighting Pseudomonas aeruginosa Infections: Antibacterial and Antibiofilm Activity of D-Q53 CecB, a Synthetic Analog of a Silkworm Natural Cecropin B Variant” (International Journal of Molecular Sciences, 2023).
